The subject of the data set is HIV (PBMC). Briefly: HIV infectious cell culture system in PBMC, HIV-1 RNA in supernatant. Particulars: selectivity index, CC50 PBMC 72 h / EC50 HIV.
With `CCOCc1cn(-c2cccc(S(=O)(=O)Nc3ccccc3C(F)(F)F)c2)nn1` [Compound 66d, 3-(4-(ethoxymethyl)-1H-1,2,3-triazol-1-yl)-N-(2-(trifluoromethyl)phenyl) benzenesulfonamide], the “SI (HIV/PBMC)” value was 27. Turning to `CCCCn1nnc(-c2ccc(NC(=O)Nc3ccccc3C)cc2)n1` [Compound 49, 1-(4-(2-butyl-2H-tetrazol-5-yl)phenyl)-3-(o-tolyl)urea], the “SI (HIV/PBMC)” value was greater than 100. Take `CCCCc1cn(-c2ccc(NC(=O)Nc3ccccc3C)cc2)nn1` [Compound 20a, 1-(4-(4-butyl-1H-1,2,3-triazol-1-yl)phenyl)-3-o-tolylurea]: the “SI (HIV/PBMC)” value is greater than 33.

Regarding `CCCCc1cn(-c2cccc(S(=O)(=O)Nc3ccccc3C(F)(F)F)c2)nn1` [Compound 64d, 3-(4-butyl-1H-1,2,3-triazol-1-yl)-N-(2-(trifluoromethyl)phenyl)benzenesulfonamide], the “SI (HIV/PBMC)” value is recorded as 6.3.

For `Cc1ccccc1NC(=O)Nc1cccc([N+](=O)[O-])c1` [EI01D, reference compound], the “SI (HIV/PBMC)” value is on record as 10.

These data come from patent US10941121B2 (AZIENDA OSPEDALIERA UNIVERSITARIA SENESE, priority 2015, dated 2021).
